Results of unrelated studies side by side (data: NIAID ChemDB).

Common to all: growth or infection tests; species: HIV-1; method: plaque count; endpoint: EC50

Neighbouring rows are from separate reports. a–b is a range or a potency band. An empty or dashed field is not shown. ECn is the concentration giving n% inhibition of infection, replication or growth.

Nc1ccn([C@H]2CC[C@@H](CO)O2)c(=O)n1 ; strain or isolate: HXB2 ; cells: HELA/CD4 + HELA CD4+ ; mutations: RT-L74M ; value: 0.6 µM
S=C(NCCc1cccs1)Nc1ccc(Br)cn1 ; strain or isolate: J821-1 Clinical isolate ; cells: HT4 + HeLa ; value: 0.065 µM
CCCCCCCCCCCCCCCCCCOC[C@@H](O)COP(=O)(O)C(=O)O ; strain or isolate: MN ; cells: HT4 + HT4-6C ; value: 2.8 µM
Nc1ncc2ncn(CC3(OCP(=O)(O)O)CC3)c2n1 ; strain or isolate: NL4-3 ; cells: HT4 + HeLa ; value: >100 µM
Cc1ccc(C(=O)Nc2ccc(S(=O)(=O)O)c3cc(S(=O)(=O)O)cc(S(=O)(=O)O)c23)cc1NC(=O)c1cccc(NC(=O)Nc2cccc(C(=O)Nc3cc(C(=O)Nc4ccc(S(=O)(=O)O)c5cc(S(=O)(=O)O)cc(S(=O)(=O)O)c45)ccc3C)c2)c1 ; strain or isolate: HTLV-III ; cells: MT-4 ; value: <25 µg/mL
O=c1[nH]c(=O)n([C@H]2C[C@H](F)[C@@H](CO)O2)cc1Cl ; strain or isolate: RT Y181C (NNRTI-resistant) ; cells: CD4+HELA + HeLa ; mutations: RT-Y181C ; value: 13.7 µM
CC(C)=CCN1Cc2cc(Cl)cc3[nH]c(=S)n(c23)C[C@@H]1C ; strain or isolate: HIVRTMF (RT L74V Y181C) ; cells: HT4 + HT4 LacZ-1 ; mutations: RT-L74V Y181C T215Y ; value: 2.5 µM
CN1CC=C(CC2(CC3=CCN(C)CC3)C(=O)N3c4ccccc4CCc4cccc2c43)CC1 ; strain or isolate: RF ; cells: MT-2 ; value: 5 µM
CC#Cc1cn([C@@H]2O[C@H](COP(=O)(O)Oc3ccc(Cl)cc3)[C@@H](O)[C@@H]2O)c(=O)[nH]c1=O ; strain or isolate: HXB2 ; cells: HeLa ; value: >5 µM
O=C(O)P(=O)(O)O ; strain or isolate: LAI ; cells: HT4 + HT4-6C ; value: 133 µM
Cc1cn([C@H]2C=C[C@@H](CO)O2)c(=O)[nH]c1=O ; strain or isolate: HXB2 ; cells: CD4+HELA + HeLa ; mutations: RT-L74V ; value: 0.75 ± 0.2 µM
CCCCCCCCCCCCSCC(COP(=O)([O-])OCC[N+](C)(C)C)OCCCCCCCCC(=O)OCC(=O)OC[C@H]1O[C@@H](n2cc(C)c(=O)[nH]c2=O)C[C@@H]1N=[N+]=[N-] ; strain or isolate: Clinical isolate G910-6 post-AZT ; cells: CEM + CEM-SS ; mutations: RT mutant at codon 215 ; value: 0.03 µM
CCCCCCCCCCCCCCCCCCOC[C@H](CO)OC ; cells: HT4 + HT4-6C ; value: >316 µM
O=C(O)P(=O)(O)O ; strain or isolate: LAV-1 ; cells: PBMC(PHA STIM.) + PBMC ; value: 22 µM
Cc1cn([C@H]2C[C@H](N=[N+]=[N-])[C@@H](CO)O2)c(=O)[nH]c1=O ; strain or isolate: BRU ; cells: HT4 + HT4-6C ; value: 0.03 µM
CCCCCCCCCCCCCCCCCC(=O)NCC(CO)OCC ; strain or isolate: IIIB ; cells: CEM + CEM-SS ; value: >100 µM
CCCCCCCCCCCCSCC(COP(=O)([O-])OCC[N+](C)(C)C)OCCCCCCCCO ; strain or isolate: HXB2 WT ; cells: CEM + CEM-SS ; value: 0.05 µM
Nc1ccn(C[C@@H](CO)OCP(=O)(O)O)c(=O)n1 ; strain or isolate: IIIB ; cells: HELA-T4 + HeLa ; value: 2.7 µM
Cc1cn([C@H]2CC[C@@H](CO)O2)c(=O)[nH]c1=O ; cells: HeLa + HELA CD4+ ; value: 100 µM
Nc1nc2c(ncn2CC2(OCP(=O)(O)O)CC2)c(=O)[nH]1 ; strain or isolate: NL4-3 ; cells: HT4 + HeLa ; value: ~100 µM
CN=C1CN=C(c2ccc[nH]2)c2cc(Cl)ccc2N1 ; strain or isolate: LAV-1 ; cells: HT4 + HT4-6C ; value: 0.5–0.8 µM
CCCCCCCCCCCCCCCCCC(=O)OCC(COP(=O)(O)OP(=O)(O)OC[C@@H]1CC[C@H](n2cc(C)c(=O)[nH]c2=O)O1)OC(=O)CCCCCCCCCCCCCCCCC ; cells: MT-4-6C + MT-4 ; value: 1 µM
CC#Cc1cn([C@@H]2O[C@H](COP(=O)(O)OCC)[C@@H](O)[C@@H]2O)c(=O)[nH]c1=O ; strain or isolate: HXB2 ; cells: HeLa ; value: >50 µM
CCCCCCCCCCCCCC(=O)OC[C@H](COP(=O)(O)OP(=O)(O)OC[C@@H]1CC[C@H](n2cc(C)c(=O)[nH]c2=O)O1)OC(=O)CCCCCCCCCCCCC ; strain or isolate: AZT-resistant A012D Clinical isolate ; cells: HT4 + HT4-6C ; value: 20 µM
Cc1cn([C@H]2C[C@H](N=[N+]=[N-])[C@@H](CO)O2)c(=O)[nH]c1=O ; strain or isolate: Q184V+333E (RT M41L/D67N/K70R/T215Y/Q184V/G333E) ; cells: HT4LACZ-1 + HT4 LacZ-1 ; mutations: RT-M41L D67N K70R T215Y Q184V G333E ; value: 1.73 µM
CS(=O)(=O)N1CCC(CC2C(=O)N(c3ccccc3)c3ccccc32)CC1 ; strain or isolate: RF ; cells: MT-2 ; value: >11 µM
Nc1nc(NC2CC2)c2ncn([C@H]3C=C[C@@H](CO)C3)c2n1 ; strain or isolate: HXB2 ; cells: HeLa + HELA CD4+ ; value: 5.8 µM
Cc1ccnc2c1NC(=O)c1cccnc1N2C1CC1 ; strain or isolate: HXB2(184) (RT-M184V) ; cells: HT4 + HT4 LacZ-1 ; mutations: RT-M184V ; value: 0.1 µM
Nc1ccn([C@H]2CC[C@@H](CO)O2)c(=O)n1 ; strain or isolate: HIVRTMC (RT D67N K70R T215F K219Q) ; mutations: RT-D67N K70R T215F K219Q ; value: 0.14 µM
Nc1ccn([C@H]2C=C[C@@H](CO)O2)c(=O)n1 ; strain or isolate: HXB2 ; cells: CD4+HELA + HeLa ; value: 0.8 µM
Cc1cn([C@H]2C[C@H](N=[N+]=[N-])[C@@H](CO)O2)c(=O)[nH]c1=O ; strain or isolate: HXB2 ; cells: HELA/CD4 + HELA CD4+ ; mutations: RT-M184I ; value: 0.001 µM
CCCCCCCCCCCCCCCCCC(=O)OCC(CO)OC(=O)CCCCCCCCCCCCCCCCC ; strain or isolate: LAI ; cells: HT4 + HT4-6C ; value: >1000 µM
O=C1N(c2ccccc2)c2ccccc2C1(CCc1cccnc1)CCc1cccnc1 ; strain or isolate: RF ; cells: MT-2 ; value: <10 µM
CCCCCCCCCCCCCCCCCCOC[C@H](COP(=O)(O)C(=O)O)OCCCC ; cells: HT4 + HT4-6C ; value: 2.2 µM
C1CNCCNCCCN(CCCN2CCCNCCNCCCNCC2)CCNC1 ; strain or isolate: IIIB ; cells: MT-4 ; value: 1.24 µM
O=c1[nH]cnc2c1ncn2[C@H]1CC[C@@H](CO)O1 ; strain or isolate: HXB2 ; cells: HELA/CD4 + HELA CD4+ ; mutations: RT-M184I ; value: 3.82 µM
CCCCCCCCCCCCCCCCCCOC[C@H](COP(=O)(O)C(=O)O)OC ; cells: HT4 + HT4-6C ; value: 1.3 µM
CC#Cc1cn([C@@H]2O[C@H](COP(=O)(O)Oc3cccc(Cl)c3)[C@@H](O)[C@@H]2O)c(=O)[nH]c1=O ; strain or isolate: HXB2 ; cells: HeLa ; value: >5 µM
Cc1cn([C@H]2C[C@H](N=[N+]=[N-])[C@@H](CO)O2)c(=O)[nH]c1=O ; strain or isolate: A012B (RT-WT) ; cells: HT4 + HT4-6C ; value: 0.01 µM
Cc1cn([C@H]2C[C@H](N=[N+]=[N-])[C@@H](CO)O2)c(=O)[nH]c1=O ; strain or isolate: A018A Clinical isolate ; cells: HT4 + HT4-6C ; value: 0.01 µM
O=C1N(c2ccccc2)c2ccccc2C1(Cc1nccn1Cc1ccccc1)Cc1nccn1Cc1ccccc1 ; strain or isolate: RF ; cells: MT-2 ; value: <4 µM

The first 4 rows once more:

smiles	strain or isolate	cells	mutations	value
Nc1ccn([C@H]2CC[C@@H](CO)O2)c(=O)n1	HXB2	HELA/CD4 + HELA CD4+	RT-L74M	0.6 µM
S=C(NCCc1cccs1)Nc1ccc(Br)cn1	J821-1 Clinical isolate	HT4 + HeLa		0.065 µM
CCCCCCCCCCCCCCCCCCOC[C@@H](O)COP(=O)(O)C(=O)O	MN	HT4 + HT4-6C		2.8 µM
Nc1ncc2ncn(CC3(OCP(=O)(O)O)CC3)c2n1	NL4-3	HT4 + HeLa		>100 µM